The exact form of at least one protein or probe is not confirmed.
Target: T1, Spo0A-DBD-6xHis (Clostridium difficile 630Δerm) (UniProt I6ZTX1)
T1 sequence: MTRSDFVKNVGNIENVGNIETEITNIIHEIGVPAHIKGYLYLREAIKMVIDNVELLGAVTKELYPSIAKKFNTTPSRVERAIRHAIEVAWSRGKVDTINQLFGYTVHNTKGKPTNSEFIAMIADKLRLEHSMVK
Experiment: EMSA
Details: EMSA: 10 mM Tris-HCl pH 7.6, 1 mM EDTA, 50 mM NaCl, 1 mM DTT, 5% glycerol, 200 ug/mL BSA, 200 cpm/uL 32P-DNA, 20 min at 30 C; 8% native PAGE in 1x TAE; recombinant protein; protein details: C-terminal 6xHis; label: 32P 5' end; probe letters rebuilt from the primers and the genome

Question: Does “GACAATTGTCCACTAACTCATAACTTTTTTCTTTTGCTACCAACATGTAAATCTCCCCCATATATAAAACAAATTTATAGGTATATTATAGTCTAAAGAACCTAGTAATTTCAACGCTTTCTACGAATGTTCTCAAGTTTCGACAATGTTTCTTTATCTAACCTTTCCTCCAACCAATTTCGCTGAATTTTTTTCCTCAAACCGATATTTTTTTCCTTCATTTTATTCTTGGAACGATCTAACTCTAACTTTAGTTCTCTTGCAGACATTCTAGTAGCACC (double strand) [PsigH]” bind?
Answer: binds

— publication PMC3485338
